Compound potency records, mixed from different reports. Data source: NIAID ChemDB in PubChem.

Shared fields: cytotoxicity tests; cells: VERO; method: MTT; measure: CC50

Rows are shuffled and stem from different studies. CCn: concentration that lowers growth or viability of the cells by n%.

Cc1cc(=O)c2c([nH]1)c1c(c3[nH]c(C)cc(=O)c32)Oc2ccccc2O1 ; value: 163 µM
S=C(Nc1cc(Br)cc(Br)n1)Nc1ncc(C2CCC2)o1 ; value: >145 µM
CCOC(=O)C1=C(C)NC(C)=C(C(=O)OCC)C1c1cn(-c2ccccc2)nc1-c1ccc(F)cc1 ; value: >10 µg/mL
COc1cc2c(cc1OC)CN(c1cc3c(cc1[N+](=O)[O-])c(=O)c(C(=O)O)c1n3CS1)CC2 ; value: 66.56 µM
O=C(O)c1cn2c(n1)CN(c1cc3c(=O)c(C(=O)O)c4n(c3cc1[N+](=O)[O-])CS4)CC2 ; value: 141 µM
N#Cc1c(SSc2nsc(-c3ccccc3)c2C#N)nsc1-c1ccccc1 ; value: 8.69 µg/mL
c1ccc(-c2cc3ccccn3c2)nc1 ; value: 214 µM
Cc1c(Cl)ccc2cc(/C=C/c3cccc4c3OCCO4)c(Cl)nc12 ; value: 90.01 µM
Cc1cnc(NC(=S)Nc2ncc(C3CCC3)o2)cc1C ; value: >207 µM
CN1CCN(c2cc3c(cc2[N+](=O)[O-])c(=O)c(C(=O)O)c2n3CS2)CC1c1ccccc1 ; value: 69.06 µM
CCCCCCCC/C=N/NC(=O)c1cnc2cc(F)ccc2c1NC(CSc1ccccc1)CC(=O)N(C)C ; value: >62.5 µg/mL
COC1CCC(N=c2cc3n(-c4ccc(Cl)cc4)c4ccccc4nc-3cc2Nc2cccnc2C)CC1 ; value: 50.88 µg/mL
COc1cc2c(cc1OC)CN(c1cc3c(=O)c(C(=O)O)c4n(c3cc1F)CS4)CC2 ; value: 141 µM
O=C(O)c1c2n(c3cc(N4CCC(O)(c5ccc(Cl)cc5)CC4)c([N+](=O)[O-])cc3c1=O)CS2 ; value: 64.03 µM
CN(C)C(=O)COC(=O)Cc1ccc(OC(=O)c2ccc(N=C(N)N)cc2)cc1.COS(=O)(=O)O ; value: >500 µg/mL
Cc1cccc(NC(=S)Nc2ncc(C3CCC3)o2)n1 ; value: >217 µM
COc1cc2c(cc1OC)CN(c1cc3c(=O)c(C(=O)O)c4n(c3cc1[N+](=O)[O-])CS4)CC2 ; value: 66.56 µM
COc1ccc(/C=N/NC(=O)c2cnc3cccc(C(F)(F)F)c3c2NC(CSc2ccccc2)CC(=O)N(C)C)cc1O ; value: >62.5 µg/mL
Cc1c(Cl)ccc2cc(/C=C/C(=O)c3cccc(Br)c3)c(Cl)nc12 ; value: 34.01 µM
CN1C(=O)C23SSC1(C)C(=O)N2c1ccccc1C3(C)C ; value: 19 µM
COS(=O)(=O)O.N=C(N)c1ccc2cc(OC(=O)c3ccc(N=C(N)N)cc3)ccc2c1 ; value: 110 µg/mL
OC[C@H]1OC(c2c(-c3ccccc3)cc3c(Cl)cc(C(F)(F)F)cn23)[C@H](O)[C@@H]1O ; value: 172 µM
NC(=S)N/N=C/c1ccc2oc3ccccc3c2c1 ; value: 74 µM
O=C(O)c1cn2c(n1)CN(c1cc3c(cc1F)c(=O)c(C(=O)O)c1n3CS1)CC2 ; value: >150.1 µM
CC1(C)CC(=O)c2c(C(F)(F)F)nn(-c3ccc(C(N)=O)c(NC4CCC(O)CC4)c3)c2C1 ; value: 13.33 µM
O=C(O)c1c2n(c3cc(N4CCC5(CC4)OCCO5)c([N+](=O)[O-])cc3c1=O)CS2 ; value: 149 µM
Cc1cc(/C=C/c2cc3ccc(Cl)c(C)c3nc2Cl)c(C)s1 ; value: 72.09 µM
S=C(Nc1cc(Cl)ccn1)Nc1ncc(C2CCC2)o1 ; value: >202.4 µM
Fc1cccc(-c2cc3ccccn3c2)c1 ; value: 100 µM
CN(C)C(=O)CC(CSc1ccccc1)Nc1c(C(=O)N/N=C/c2ccc(OC(F)(F)F)cc2)cnc2cccc(C(F)(F)F)c12 ; value: >62.5 µg/mL
COc1c(N2C[C@H]3CCCN(C(=O)Cn4cc(CN5C(=O)/C(=N\NC(N)=S)C6(F)C=CC=CC56)nn4)[C@H]3C2)c(F)cc2c1N(C1CC1)CC(C(=O)O)C2=O ; value: 8 µg/mL
O=C(O)c1c2n(c3cc(F)c(N4CCN(C(=O)c5ccco5)CC4)cc3c1=O)CS2 ; value: >146 µM
Clc1ccc(-c2cc3ccccn3c2)cc1Cl ; value: 391 µM
NC1=NC2C(N=CN2[C@H]2C[C@@H](CCP(=O)(O)O)CO2)C(=O)N1 ; value: >100 µg/mL
O=C(Nc1ncco1)NC12CC3CC(CC(C3)C1)C2 ; value: 22 µg/mL
CC(C)N=c1cc2n(-c3ccc(Cl)cc3)c3ccccc3nc-2cc1Nc1ccc(Cl)cc1 ; value: 0.54 µg/mL
Cc1cc(C)n2cc(-c3ccccc3)cc2c1 ; value: >500 µM
S=C(Nc1ccc(Cl)cc1)Nc1ncc(C2CCC2)o1 ; value: >203 µM
Cc1cc(NCCCCCCCCNc2cc(C)nc3cc(N(C)C)ccc23)c2ccc(N(C)C)cc2n1 ; value: >500 µg/mL
CC(/C=N/NC(=S)SCc1ccccc1)=N\NC(N)=S ; value: 38.4 µM
Cc1c(Cl)ccc2cc(/C=C/C(=O)c3ccc(Cl)cc3)c(Cl)nc12 ; value: 24.73 µM
CSc1nsc(-c2ccc(OCc3ccccc3)cc2)c1C#N ; value: >16.92 µg/mL
CN(C)C(=O)CC(CSc1ccccc1)Nc1c(C(=O)N/N=C/c2ccc(Br)s2)cnc2cccc(C(F)(F)F)c12 ; value: >62.5 µg/mL
FC(F)(F)c1cc(Cl)c2cc(-c3ccccc3)cn2c1 ; value: >500 µM
CN(C)C(=O)CC(CSc1ccccc1)Nc1c(C(=O)N/N=C/c2cccnc2)cnc2cc(F)ccc12 ; value: >62.5 µg/mL
N#Cc1ccn2cc(-c3ccccc3)cc2c1 ; value: 253 µM
CC(C)(C)c1cn(CC(Oc2ccc(Cl)cc2)c2ccc(Cl)cc2Cl)nn1 ; value: >25 µg/mL
CCOC(=O)C1=C(C)NC(C)=C(C(=O)OCC)C1c1cn(-c2ccccc2)nc1-c1ccc([N+](=O)[O-])cc1 ; value: 8.83 µg/mL
N#Cc1c(-c2ccccc2)s[nH]c1=S ; value: 13 µg/mL
CCOC(=O)C1=C(C)NC(C)=C(C(=O)OCC)C1c1cn(-c2ccccc2)nc1-c1ccc(O)cc1 ; value: 4.27 µg/mL
CCCCc1ccc2cc(-c3ccccc3)cn2c1 ; value: >500 µM
Nc1cccc(-c2cn(CC(Oc3ccc(Cl)cc3)c3ccc(Cl)cc3Cl)nn2)c1 ; value: >50 µg/mL